Pooled drug test results. Numbers come from NIAID ChemDB, via PubChem.

Common to all: whole-cell or culture tests

Percent inhibition refers to the dose given; in toxicity tests it is the harm to the cells.

smiles,organism,strain or isolate,method,setting,measure,dose,result
CC[C@H]1OC(=O)[C@H](C)[C@@H](O[C@H]2C[C@@](C)(OC)[C@@H](O)[C@H](C)O2)[C@H](C)[C@@H](O[C@@H]2O[C@H](C)C[C@H](N(C)C)[C@H]2O)[C@](C)(OC)C[C@@H](C)C(=O)[C@H](C)[C@@H](O)[C@]1(C)O,Mycobacterium avium complex,N-951 (HIV+),,,MIC,,4 µg/mL
O=C(NCc1ccc(N2CCOCC2)cc1)c1c(Cl)nc2ccccn12,Mycobacterium ulcerans,,fluorescence,,MIC50,,1–10 µg/mL
Fc1cccc(-n2c(=S)oc3ccc(Br)cc3c2=S)c1,Mycobacterium kansasii,6509/96,,14 d,MIC,,8 µM
CCc1nc2ccc(Cl)cn2c1C(=O)NCc1ccc(C2CCN(c3ccc(OCC(F)(F)F)nc3)CC2)cc1F.Cl,Mycobacterium avium,,fluorescence,,inhibition,0.03 µM,85%
CO[C@@]1(NC(=O)CCCC(N)C(=O)O)C(=O)N2C(C(=O)O)=C(COC(C)=O)CSC21,Mycobacterium fortuitum,1261,,,MIC,,>100 µg/mL
Cc1ccc2oc(=O)n(-c3ccc(F)cc3)c(=S)c2c1,Mycobacterium kansasii,My 235/80,,21 d,MIC,,16 µM
CO[C@H]1/C=C/O[C@@]2(C)Oc3c(C)c(O)c4c(O)c(c5c(c4c3C2=O)NC2(CCN(CC(C)C)CC2)N=5)=NC(=O)/C(C)=C\C=C\[C@H](C)[C@H](O)[C@@H](C)[C@@H](O)[C@@H](C)[C@H](OC(C)=O)[C@@H]1C,Mycobacterium avium intracellulare,141,,,MIC,,0.5 µg/mL
COc1ccc2oc(=S)n(-c3ccc(Cl)cc3)c(=S)c2c1,Mycobacterium kansasii,My 235/80,,14 d,MIC,,32 µM
COc1ccc(Nc2nnc(-c3ccncc3)o2)cc1,Mycobacterium kansasii,My 6509/96,broth dilution,14 d,MIC100,,>125 µM
CCCCCCCCCCCCN1C(=O)N(c2ccc(Cl)cc2)C(=O)C[C@H]1C1OC2OC(C)(C)OC2[C@H]1Oc1ccccc1,Mycobacterium aurum,,,,MIC,,>25 µg/mL
Cc1ccc2nc(C)c(C(=O)NCc3ccc(N4CCN(c5ccc(OC(F)(F)F)cc5)C(C)(C)C4)c(F)c3)n2c1,Mycobacterium avium,,fluorescence,,inhibition,0.14 µM,85%
CO[C@@]1(NC(=O)CSCC#N)C(=O)N2C(C(=O)O)=C(CSc3nnnn3C)CS[C@@H]21,Mycobacterium fortuitum,1049,,,MIC,,6.25 µg/mL
CCCCCCCCCC(CCCCCCCCC)OC(=O)NC(CCC(=O)O)(CCC(=O)O)CCC(=O)O,Mycobacterium chelonae,EO-P-1,,,MIC,,54 µg/mL
NNC(=O)c1ccncc1,Mycobacterium avium complex,N-325 (HIV-),,,MIC,,1 µg/mL
CCCCCCCCCCCCCCCCN(C(=O)Nc1ccccc1)[C@@H](CC(=O)OCC)C1O[C@@H]2OC(C)(C)O[C@@H]2[C@H]1OC,Mycobacterium aurum,,,,MIC,,>25 µg/mL
CO[C@@]1(NC(=O)C2SC(=C(C(N)=O)C(=O)[O-])S2)C(=O)N2C(C(=O)[O-])=C(CSc3nnnn3C)CS[C@@H]21,Mycobacterium fortuitum,1045,,,MIC,,50 µg/mL
O=c1oc2ccc(F)cc2c(=S)n1-c1cccc(F)c1,Mycobacterium kansasii,My 235/80,,21 d,MIC,,16 µM
C[C@@H]1CN(c2c(F)c(N)c3c(=O)c(C(=O)O)cn(C4CC4)c3c2F)C[C@H](C)N1,Mycobacterium xenopi,ATCC 19970,broth dilution / visual reading,,MIC,,0.1 µg/mL
O=C(NNC(=O)c1ccncc1)Nc1ccc(Br)cc1F,Mycobacterium avium,MY330/88,broth dilution,14 d,MIC100,,>125 µM
Nc1ccc(S(=O)(=O)c2ccc(N)cc2)cc1,Mycobacterium avium complex,DW3,,,MIC,,32 µg/mL
CCCCCCCCCCCCCCCCN(C(=O)Nc1ccc(Cl)cc1)[C@@H](CC(=O)OCC)C1O[C@@H]2OC(C)(C)O[C@@H]2[C@H]1OC,Mycobacterium aurum,,,,MIC,,>25 µg/mL
CCc1nc2ccc(Cl)cn2c1C(=O)NCc1ccc(C2CCN(c3ccc(OC(F)(F)F)cc3)CC2)c(Cl)c1.Cl,Mycobacterium avium,,fluorescence,,inhibition,0.06 µM,85%
CO[C@@]1(NC(=O)Cc2ccccc2)C(=O)N2C(C(=O)O)=C(COC(C)=O)CSC21,Mycobacterium fortuitum,1047,,,MIC,,>100 µg/mL
CCc1nc2ccc(Cl)cn2c1C(=O)NCc1ccc(C2=C[C@H](C)N(c3ccc(OC(F)(F)F)cc3)CC2)c(F)c1.Cl,Mycobacterium avium,,fluorescence,,inhibition,0.007 µM,85%
CCCCc1ccc(NC(=O)NNC(=O)c2ccncc2)cc1,Mycobacterium kansasii,My 235/80,broth dilution,7 d,MIC100,,62.5 µM
Cc1ccc2oc(=O)n(-c3ccc(C(F)(F)F)cc3)c(=S)c2c1,Mycobacterium kansasii,My 235/80,,21 d,MIC,,32 µM
COc1ccn2nc(C)c(C(=O)NCc3ccc(C4CCN(c5ccc(OC(F)(F)F)cc5)CC4)c(F)c3)c2c1.Cl,Mycobacterium avium,,fluorescence,,inhibition,0.0072 µM,85%
CC1(C)N=C(N)N=C(N)N1OCCCOc1cc(Cl)c(Cl)cc1Cl,Mycobacterium avium complex,DW26,,,MIC,,4 µg/mL
CCCCCCCc1ccc(NC(=O)NNC(=O)c2ccncc2)cc1,Mycobacterium kansasii,My 6509/96,broth dilution,21 d,MIC100,,125 µM
CCc1nc2cc(F)ccn2c1C(=O)NCc1ccc(N2CCC(c3ccc(OC(F)(F)F)cc3)CC2)c(F)c1.Cl,Mycobacterium avium,,fluorescence,,inhibition,0.013 µM,85%
CCC(=O)O[C@H]1[C@H](C)[C@@H](O[C@@H]2O[C@H](C)C[C@H](N(C)C)[C@H]2O)C(C)(O)C[C@@H](C)/C(=N\OCCCOc2ccccc2)[C@H](C)[C@@H](O)[C@](C)(O)[C@@H](CC)OC(=O)[C@@H]1C,Mycobacterium avium intracellulare,20066 (clarithromycin-susceptible),,,MIC,,12.5 µg/mL
CCCCCCCCCCCCCCCCC(=O)NC(CCC(=O)O)(CCC(=O)O)CCC(=O)O,Mycobacterium abscessus,AAy-P-1,,,MIC,,144 µg/mL
O=C(NNC(=O)c1ccncc1)Nc1ccc(F)c(Cl)c1,Mycobacterium kansasii,My 235/80,broth dilution,21 d,MIC100,,>125 µM
CCCCCCCCCCCC(CCCCCCCCCCC)NC(=O)NC(CCC(=O)O)(CCC(=O)O)CCC(=O)O,Mycobacterium chelonae,EO-P-1,,,MIC,,106 µg/mL
Cc1cc(CNC(=O)c2c(Cl)nc3ccccn23)c2[nH]c(C)c(C)c2c1,Mycobacterium ulcerans,,fluorescence,,MIC50,,>10 µg/mL
CCCCCCCCCCCCCCC(=O)NC(C)(CCC(=O)O)CCC(=O)O,Mycobacterium chelonae,EO-P-1,,,MIC,,9 µg/mL
CC[C@H]1OC(=O)[C@H](C)[C@@H](OC2C[C@@](C)(OC)[C@@H](OC(=O)C(C)C)[C@H](C)O2)[C@H](C)[C@@H](O[C@@H]2O[C@H](C)C[C@H](N(C)C)[C@H]2O)C(C)(O)C[C@@H](C)/C(=N\OCCCOc2ccccc2)[C@H](C)[C@@H](O)[C@]1(C)O,Mycobacterium avium complex,20092 (clarithromycin-resistant),,,MIC,,1.56 µg/mL
CO[C@H]1/C=C/O[C@@]2(C)Oc3c(C)c(O)c4c(O)c(c5c(c4c3C2=O)NC2(CCN(CC(C)C)CC2)N=5)=NC(=O)/C(C)=C\C=C\[C@H](C)[C@H](O)[C@@H](C)[C@@H](O)[C@@H](C)[C@H](OC(C)=O)[C@@H]1C,Mycobacterium avium complex,N-269 (HIV-),,,MIC,,0.2 µg/mL
CCCCCCCCCCCCCCC(=O)NC(CCC(=O)O)(CCC(=O)O)CCC(=O)O,Mycobacterium abscessus,AAy-P-1,,,MIC,,144 µg/mL
CCCCCCNNC(=O)O[C@H]1[C@H](O[C@@H]2[C@@H](C)[C@H](O[C@H]3C[C@@](C)(OC)[C@@H](OC(C)=O)[C@H](C)O3)[C@@H](C)C(=O)O[C@H](CC)[C@@](C)(O)[C@H](O)[C@@H](C)/C(=N/OCCCC3CCCCC3)[C@H](C)CC2(C)O)O[C@H](C)C[C@@H]1N(C)C,Mycobacterium avium complex,20096 (clarithromycin-resistant),,,MIC,,1.56 µg/mL
CCOc1ccc(N2CCN(c3ccc(CNC(=O)c4c(CC)nc5cc(F)ccn45)cc3F)C[C@@H]2C)cn1.Cl,Mycobacterium avium,,fluorescence,,inhibition,0.012 µM,85%
CCCCCCCC/C=C\CCCCCCCCN(C(=O)NCc1ccccc1)[C@@H](CC(=O)OCC)C1O[C@@H]2OC(C)(C)O[C@@H]2[C@H]1Oc1ccccc1,Mycobacterium aurum,,,,MIC,,>25 µg/mL
CC(C)N=c1cc2n(-c3ccc(Cl)cc3)c3ccccc3nc-2cc1Nc1ccc(Cl)cc1,Mycobacterium bolletii,Clinical isolate,broth dilution,,MIC90,,1 µg/mL
O=C(NNC(=O)c1ccncc1)Nc1ccc(Br)cc1Br,Mycobacterium avium,MY330/88,broth dilution,21 d,MIC100,,>125 µM
CCCCCCCCCCCCCCCCO/N=C1\[C@H](C)CC(C)(O)[C@H](O[C@@H]2O[C@H](C)C[C@H](N(C)C)[C@H]2O)[C@@H](C)[C@H](OC2C[C@@](C)(OC)[C@@H](O)[C@H](C)O2)[C@@H](C)C(=O)O[C@H](CC)[C@@](C)(O)[C@H](O)[C@H]1C,Mycobacterium avium complex,20096 (clarithromycin-resistant),,,MIC,,>50 µg/mL
CCc1nc2ccc(Cl)cn2c1C(=O)NCc1ccc(-c2ccc(Cl)cc2)cc1,Mycobacterium ulcerans,,fluorescence,,MIC50,,0.001–0.01 µg/mL
CCOc1ccc(N2CCN(c3ccc(CNC(=O)c4c(CC)nc5ccc(Cl)cn45)cc3F)C[C@@H]2C)cc1OC.Cl,Mycobacterium avium,,fluorescence,,inhibition,0.69 µM,85%
CO[C@H]1/C=C/O[C@@]2(C)Oc3c(C)c(O)c4c(=O)c(c5oc6cc(N7CCN(CC(C)C)CC7)cc(=O)c6nc5c4c3=C2O)NC(=O)/C(C)=C\C=C\[C@H](C)[C@H](O)[C@@H](C)[C@@H](O)[C@@H](C)[C@H](OC(C)=O)[C@@H]1C,Mycobacterium avium complex,N-259 (HIV-),,,MIC,,0.05 µg/mL
CC[C@H]1OC(=O)[C@H](C)[C@@H](O[C@H]2C[C@@](C)(OC)[C@@H](OC(C)=O)[C@H](C)O2)[C@H](C)[C@@H](O[C@@H]2O[C@H](C)C[C@H](N(C)C)[C@H]2OC(=O)NN2CCCCC2)C(C)(O)C[C@@H](C)/C(=N\OCCCC2CCCCC2)[C@H](C)[C@@H](O)[C@]1(C)O,Mycobacterium avium complex,20039 (clarithromycin-susceptible),,,MIC,,3.13 µg/mL
NNC(=O)c1ccncc1,Mycobacterium kansasii,My 6509/96,broth dilution,7 d,MIC100,,4 µM
CO[C@@]1(NC(=O)Cn2cnnn2)C(=O)N2C(C(=O)O)=C(CSc3nnc(C)s3)CSC21,Mycobacterium fortuitum,1047,,,MIC,,100 µg/mL
CCc1nc2ccc(Cl)cn2c1C(=O)NCc1ccc(N2CCN(c3ncc(OC(F)(F)F)cc3F)[C@@H](C)C2)c(F)c1.Cl,Mycobacterium avium,,fluorescence,,inhibition,0.035 µM,85%
CC[C@H]1OC(=O)[C@H](C)[C@@H](O[C@H]2C[C@@](C)(OC)[C@@H](OC(C)=O)[C@H](C)O2)[C@H](C)[C@@H](O[C@@H]2O[C@H](C)C[C@H](N(C)C)[C@H]2O)C(C)(O)C[C@@H](C)/C(=N\OCCCOc2ccccc2)[C@H](C)[C@@H](O)[C@]1(C)O,Mycobacterium avium complex,20039 (clarithromycin-susceptible),,,MIC,,1.56 µg/mL
CCCCCCCCCCCCC(CCCCCCCCCCCC)NC(=O)NC(CCC(=O)O)(CCC(=O)O)CCC(=O)O,Mycobacterium chelonae,EO-P-1,,,MIC,,72 µg/mL
COc1ccc(NC(=O)NNC(=O)c2ccncc2)cc1,Mycobacterium kansasii,My 235/80,broth dilution,7 d,MIC100,,>125 µM
CC[C@H]1OC(=O)[C@H](C)[C@@H](O[C@H]2C[C@@](C)(OC)[C@@H](OC(C)=O)[C@H](C)O2)[C@H](C)[C@@H](O[C@@H]2O[C@H](C)C[C@H](N(C)C)[C@H]2OC(=O)NNCc2ccccc2OC)C(C)(O)C[C@@H](C)/C(=N\OCCCC2CCCCC2)[C@H](C)[C@@H](O)[C@]1(C)O,Mycobacterium avium complex,20039 (clarithromycin-susceptible),,,MIC,,0.39 µg/mL
CO[C@H]1/C=C/O[C@@]2(C)Oc3c(C)c(O)c4c(=O)c(c5oc6cc(N7CCN(CC(C)C)CC7)cc(=O)c6nc5c4c3=C2O)NC(=O)/C(C)=C\C=C\[C@H](C)[C@H](O)[C@@H](C)[C@@H](O)[C@@H](C)[C@H](OC(C)=O)[C@@H]1C,Mycobacterium ulcerans,Isolate 842,,,MBC,,0.012 µg/mL
CCNC(=O)c1c(Cl)nc2ccccn12,Mycobacterium ulcerans,,fluorescence,,MIC50,,>10 µg/mL
CCCCCCCCCCCCCCCCCCCCNC(=O)NC(CCC(=O)O)(CCC(=O)O)CCC(=O)O,Mycobacterium abscessus,AAy-P-1,,,MIC,,4.5 µg/mL
Clc1ccc(Nc2nnc(-c3ccncc3)o2)cc1Cl,Mycobacterium kansasii,My 6509/96,broth dilution,14 d,MIC100,,>125 µM

3 of the rows above, restated:

{"smiles": "CO[C@H]1/C=C/O[C@@]2(C)Oc3c(C)c(O)c4c(=O)c(c5oc6cc(N7CCN(CC(C)C)CC7)cc(=O)c6nc5c4c3=C2O)NC(=O)/C(C)=C\\C=C\\[C@H](C)[C@H](O)[C@@H](C)[C@@H](O)[C@@H](C)[C@H](OC(C)=O)[C@@H]1C", "organism": "Mycobacterium ulcerans", "strain or isolate": "Isolate 842", "measure": "MBC", "result": "0.012 µg/mL"}
{"smiles": "CCc1nc2ccc(Cl)cn2c1C(=O)NCc1ccc(C2=C[C@H](C)N(c3ccc(OC(F)(F)F)cc3)CC2)c(F)c1.Cl", "organism": "Mycobacterium avium", "method": "fluorescence", "measure": "inhibition", "dose": "0.007 µM", "result": "85%"}
{"smiles": "CCCCCCNNC(=O)O[C@H]1[C@H](O[C@@H]2[C@@H](C)[C@H](O[C@H]3C[C@@](C)(OC)[C@@H](OC(C)=O)[C@H](C)O3)[C@@H](C)C(=O)O[C@H](CC)[C@@](C)(O)[C@H](O)[C@@H](C)/C(=N/OCCCC3CCCCC3)[C@H](C)CC2(C)O)O[C@H](C)C[C@@H]1N(C)C", "organism": "Mycobacterium avium complex", "strain or isolate": "20096 (clarithromycin-resistant)", "measure": "MIC", "result": "1.56 µg/mL"}

A number after MIC or MFC names an inhibition level or a share of isolates. An empty or dashed field is not shown. Two numbers with a dash give a range or band. Lines come from different laboratories, so protocols vary.